Results of unrelated studies side by side (data: NIAID ChemDB).

Shared fields: whole-cell or culture tests; agent: HIV-1; read by: luciferase; read-out: EC50

ECn: concentration that inhibits the pathogen or its effect by n%. An empty or dashed field is not shown. Lines come from different laboratories, so protocols vary.

compound | strain | cell line | value
COc1cnc(-c2cnccn2)c2[nH]cc(C(=O)C(=O)N3CCC(=C(C(N)=O)c4ccccc4)CC3)c12 | - | HeLa | <1 µM
Cc1cc(N(C)C(=O)[C@H](Cc2cc(F)cc(F)c2)NC(=O)NS(=O)(=O)N[C@@H](Cc2cc(F)cc(F)c2)C(=O)N(C)c2cnc(C)c(C)c2)cnc1C | NL4-3 | MT-2 | 7 µM
Cc1cc(S(N)(=O)=O)ccc1NC(=O)COc1ccc(Cl)cc1C(=O)c1cc(F)cc(C(F)(F)F)c1 | IIIB | HELA MAGI | 0.0014 µM
COc1ccc(N(C)C(=O)[C@H](Cc2ccccc2)NC(=O)c2nc[nH]c2C(=O)N[C@@H](Cc2ccccc2)C(=O)N(C)c2ccc(OC)cc2)cc1 | NL4-3 | MT-2 | 3.34 µM
COc1cnc(-c2cnc(N)nc2)c2[nH]cc(C(=O)C(=O)N3CCC(=C(C#N)c4ccccc4)CC3)c12 | - | HeLa | <1 µM
CN(C(=O)[C@H](Cc1cc(F)cc(F)c1)NC(=O)NS(=O)(=O)N[C@@H](Cc1cc(F)cc(F)c1)C(=O)N(C)c1cccnc1)c1cccnc1 | NL4-3 | MT-2 | 4.14 µM
C[C@H]1CN(C(=O)c2ccccc2)CCN1C(=O)C(=O)c1c[nH]c2cc(Cl)c(Cl)cc12 | - | HeLa + HELA CD4+/CCR5 | <10 µM
COc1cnc(-n2ccc(C)n2)c2[nH]cc(C(=O)C(=O)N3CCC(=C(c4ccccc4)c4nnc(C)o4)CC3)c12 | - | HeLa | <1 µM
O=C(C(=O)N1CCN(C(=O)c2cc(Cl)ccc2S)CC1)c1c[nH]c2cccc(F)c12 | - | HeLa + HELA CD4+/CCR5 | <10 µM
COc1ccc(N(CCF)C(=O)[C@H](Cc2cc(F)cc(F)c2)NC(=O)CN2c3ccccc3N(CC(=O)N[C@@H](Cc3cc(F)cc(F)c3)C(=O)N(CCF)c3ccc(OC)cc3)S2(=O)=O)cc1 | NL4-3 | MT-2 | 0.09 µM
COC(=O)c1cccc2c(C(=O)C(=O)N3CCN(C(=O)c4ccccc4)C(CC(C)C)C3)c[nH]c12 | - | HeLa + HELA CD4+/CCR5 | <10 µM
COc1cnc(-c2ccc(S(C)(=O)=O)cc2)c2[nH]cc(C(=O)C(=O)N3CCC(=C(C#N)c4ccccc4)CC3)c12 | - | HeLa | <1 µM
O=C(C(=O)N1CCN(C(=O)c2ccccc2)CC1)c1c[nH]c2c(Br)cc(F)cc12 | - | HeLa + HELA CD4+/CCR5 | <10 µM
C=CCN(C(=O)[C@H](Cc1cc(F)cc(F)c1)NS(=O)(=O)NS(=O)(=O)N[C@@H](Cc1cc(F)cc(F)c1)C(=O)N(CC=C)c1ccc(OC)cc1)c1ccc(OC)cc1 | NL4-3 | MT-2 | 2.56 µM
COc1ccc(F)c2c(C(=O)C(=O)N3CCN(C(=O)c4ccccc4)CC3)c[nH]c12 | - | HeLa + HELA CD4+/CCR5 | <10 µM
CC1CN(C(=O)C(=O)c2c[nH]c3ccccc23)CC/C1=C(/C#N)c1ccccc1 | - | HeLa | <1 µM
COc1ccc(N(C)C(=O)[C@H](Cc2ccccc2)NC(=O)c2ccnc(C(=O)N[C@@H](Cc3ccccc3)C(=O)N(C)c3ccc(OC)cc3)c2)cc1 | NL4-3 | MT-2 | 0.68 µM
O=C(C(=O)N1CCN(C(=O)c2ccccc2SCc2ccccc2)CC1)c1c[nH]c2cccc(Cl)c12 | - | HeLa + HELA CD4+/CCR5 | <10 µM

The last 2 rows once more:

| compound | strain | cell line | value |
|---|---|---|---|
| COc1ccc(N(C)C(=O)[C@H](Cc2ccccc2)NC(=O)c2ccnc(C(=O)N[C@@H](Cc3ccccc3)C(=O)N(C)c3ccc(OC)cc3)c2)cc1 | NL4-3 | MT-2 | 0.68 µM |
| O=C(C(=O)N1CCN(C(=O)c2ccccc2SCc2ccccc2)CC1)c1c[nH]c2cccc(Cl)c12 | - | HeLa + HELA CD4+/CCR5 | <10 µM |